Pooled drug test results. Numbers come from NIAID ChemDB, via PubChem.

Shared fields: growth or infection tests; organism: Mycobacterium tuberculosis

MIC50, MIC90 and the like: level of inhibition, or share of isolates inhibited. MIC bound comes from a single tested concentration. Conditions beyond the fields shown may differ between rows. ECn is the concentration giving n% inhibition of infection, replication or growth. Percent inhibition refers to the dose given; in toxicity tests it is the harm to the cells. An empty or dashed field is not shown.

SMILES,dose,read-out,strain or isolate,conditions,read by,mutations,cell line,result
Cc1onc(-c2ccccc2)c1C(=O)N[C@@H]1C(=O)N2[C@@H]1SC(C)(C)[C@@H]2C(=O)O,10 µg/mL,inhibition,Gordon,21 d,colony count,-,-,99%
O=C(NN1C(=O)c2cc(Cl)c(Cl)cc2C1=O)c1ccc(-n2cccc2)cc1,-,MIC,H37Rv,-,resazurin,-,-,0.8 µg/mL
O=C1c2cc(Cl)ccc2OP(=O)(c2ccccc2)N1c1ccc(C(F)(F)F)cc1,-,MIC,234/2005,14 d,-,-,-,1 µM
COCCN1CCN(C(=O)c2nc3cc(C(F)(F)F)cc([N+](=O)[O-])c3s2)CC1,-,MIC80,H37Rv,-,resazurin / absorbance,BTZ-resistant (C387S),-,>64 µg/mL
CO[C@H]1/C=C/O[C@@]2(C)Oc3c(C)c(O)c4c(O)c(c5[nH]cnc5c4c3C2=O)NC(=O)/C(C)=C\C=C\[C@H](C)[C@H](O)[C@@H](C)[C@@H](O)[C@@H](C)[C@H](OC(C)=O)[C@@H]1C,-,MIC,H37Rv,-,-,-,VERO,1.56 µg/mL
CCCCCOc1ccc(NC(=O)OCCN2CCCCC2)cc1,-,MIC,My 331/88,-,-,-,-,62.5 µM
N#Cc1ccc(N2CC3CC2CN3Cc2ccc([N+](=O)[O-])o2)cc1,-,MIC90,Clinical Isolate 16995,-,resazurin,INH RFP resistant,-,5.94 µg/mL
O=C(O)c1ccccc1-c1c2ccc(=O)c(I)c-2oc2c(I)c(O)ccc12,-,MIC bound,H37Rv,-,BACTEC,-,-,>12.5 µg/mL
O=[N+]([O-])c1cc(C(F)(F)F)cc2nc(C3=NCCO3)sc12,-,MIC80,H37Rv,-,resazurin / absorbance,BTZ-resistant (C387S),-,>32 µg/mL
CCCc1cc(=O)oc2c3c(c4c(c12)OC(C)(C)CC4)O[C@@H](C)[C@H](C)C3=O,12.5 µg/mL,inhibition,H37Rv,-,BACTEC,-,-,49%
CCOc1cccc(NC(=O)OCCN2CCOCC2)c1,-,MIC,My 331/88,-,-,-,-,>500 µM
Cc1ccc(NC(=O)c2cnccn2)c(=O)o1,6.25 µg/mL,inhibition,H37Rv,-,BACTEC,-,-,21%
O=[N+]([O-])c1ccc(CN2CC3CN(c4cccc(C(F)(F)F)c4)CC3C2)o1,-,MIC90,H37Rv,-,resazurin,-,-,<0.016 µg/mL
COc1c2ccoc2c(OC)c2oc(=O)ccc12,-,MIC90,H37Ra,-,resazurin,-,-,>400 µg/mL
CC(C)(C)c1ccc(N2CCN(Cc3ccc([N+](=O)[O-])o3)CC2)cc1,-,MIC90,H37Rv,-,resazurin,-,-,0.016 µg/mL
C[N+](C)(C)CCCOC1=Nc2ccccc2O/C1=C\c1ccccc1,12.5 µg/mL,inhibition,H37Rv,-,BACTEC,-,-,7%
O=C1c2cc(Br)ccc2OP(=O)(c2ccccc2)N1c1ccc(C(F)(F)F)cc1,-,MIC,Praha 4,21 d,-,-,-,1 µM
CCCCCCCOc1cccc(NC(=O)OCCN2CCCCC2)c1,-,MIC,My 331/88,-,-,-,-,16 µM
N#CCCCCNC(=O)C1CCC(=O)N1,-,MIC,H37Rv,-,BACTEC,-,-,≥12.5 µg/mL
NCC[C@H](O)C(=O)N[C@@H]1C[C@H](N)[C@@H](O[C@H]2O[C@H](CN)[C@@H](O)[C@H](O)[C@H]2O)[C@H](O)[C@H]1O[C@H]1O[C@H](CO)[C@@H](O)[C@H](N)[C@H]1O,-,MIC99,8666/2010,-,broth dilution,MDR,-,0.5 µM
O=C(O)C(=O)O.OC(CNCCc1ccccc1)CN1c2ccccc2Sc2ccccc21,-,MIC,MDR-843,-,resazurin,-,-,2 µg/mL
O=C1OC2(O)c3ccccc3C(=O)N2N2CCCC12,-,MIC bound,H37Rv,-,resazurin,-,-,>6.25 µg/mL
CCCCCCCOc1cccc(NC(=O)OCCN2CCOCC2)c1,-,MIC,My 331/88,-,-,-,-,16 µM
C=CNC(=S)n1nc(-c2ccccc2NC(=O)C(F)(F)F)c(=O)n(C(=S)NC=C)c1=S,12.5 µg/mL,inhibition,H37Rv,-,BACTEC,-,-,0%
C=C/C(C)=C/[C@@]1(C)SC(=O)C(C)=C1O,-,MIC,TRC-resistant,-,-,-,-,5 µg/mL
CCN(CC)Cc1cc(Nc2c(C3CCCC3)c(C)nc3cc(Cl)ccc23)ccc1O,6.25 µg/mL,inhibition,H37Rv,-,resazurin,-,-,16%
O=C(Nc1ccc(C(F)(F)F)cc1)c1cc(Cl)ccc1OP(=O)(c1ccccc1)c1ccccc1,-,MIC,Praha 131,21 d,-,-,-,1 µM
CN[C@@H]1[C@H](O[C@H]2[C@H](O[C@H]3[C@H](O)[C@@H](O)[C@H](N=C(N)N)[C@@H](O)[C@@H]3N=C(N)N)O[C@@H](C)[C@]2(O)C=O)O[C@@H](CO)[C@H](O)[C@H]1O,-,MIC,U108,-,-,-,-,64 µg/mL
O=C(Nc1ccc(C(F)(F)F)cc1)c1cc(Cl)ccc1OP(=O)(OCc1ccccc1)OCc1ccccc1,-,MIC,My 331/88,7 d,-,-,-,2 µM
O=[N+]([O-])c1ccc(CN2CCC3(CC2)CCN(c2ccc(OC(F)(F)F)cc2)CC3)o1,-,MIC90,Clinical Isolate 16995,-,resazurin,INH RFP resistant,-,4.29 µg/mL
CCOc1c(N=Nc2ccccc2OC)c(-c2ccccc2)nn1C(=S)S,-,MIC,H37Rv,-,BACTEC,-,-,≥12.5 µg/mL
CO[C@H]1/C=C/O[C@@]2(C)Oc3c(C)c(O)c4c(O)c(c(/C=N/N5CCN(C)CC5)c(O)c4c3C2=O)NC(=O)/C(C)=C\C=C\[C@H](C)[C@H](O)[C@@H](C)[C@@H](O)[C@@H](C)[C@H](OC(C)=O)[C@@H]1C,-,MIC99,Praha 131,-,broth dilution,MDR,-,>8 µM
CCCCCOc1cccc(NC(=O)OC(C)CN2CCCCC2)c1,-,MIC,My 331/88,-,-,-,-,8 µM
CC1COc2c(N3CCN(C)CC3)c(F)cc3c(=O)c(C(=O)O)cn1c23,-,MIC99,Praha 1,-,broth dilution,MDR,-,1 µM
CO[C@H]1/C=C/O[C@@]2(C)Oc3c(C)c(O)c4c(O)c(c(/C=N/N5CCN(C)CC5)c(O)c4c3C2=O)NC(=O)/C(C)=C\C=C\[C@H](C)[C@H](O)[C@@H](C)[C@@H](O)[C@@H](C)[C@H](OC(C)=O)[C@@H]1C,-,MIC,Erdman,-,-,-,-,0.3 µg/mL
O=C(Nc1ccc(C(F)(F)F)cc1)c1cc(Br)ccc1OP(=O)(c1ccccc1)c1ccccc1,-,MIC,My 331/88,7 d,-,-,-,2 µM
CN(C)c1ncnc2c1ncn2[C@@H]1O[C@H](CO)[C@@H](N)[C@H]1O,-,MIC bound,H37Rv,-,resazurin,-,-,>6.25 µg/mL
CCCCCCCOc1cccc(NC(=O)OC(COCC)CN2CCCCC2)c1,-,MIC,My 331/88,-,-,-,-,4 µM
CC/C=C/C/C=C/C/C=C/CCCCCCCC(=O)OCC,-,MIC,H37Rv,-,BACTEC,-,-,≥12.5 µg/mL
Oc1ccc(-c2csc(-n3cccc3)n2)cc1,-,MIC,H37Rv,-,resazurin,-,-,50 µg/mL
CN[C@@H]1[C@@H](O)[C@@H](O[C@@H]2[C@@H](O)[C@H](O[C@H]3O[C@H](CN)CC[C@H]3N)[C@@H](N)C[C@H]2N)OC[C@]1(C)O,-,MIC99,234/2005,-,broth dilution,MDR,-,0.25 µM
C(=C\c1ccccc1)/CNc1ccccc1Cn1ccnc1,-,MIC,B905,-,-,-,-,8 µg/mL
Cc1onc(-c2ccccc2Cl)c1C(=O)N[C@@H]1C(=O)N2[C@@H]1SC(C)(C)[C@@H]2C(=O)O,2.5 µg/mL,inhibition,Gordon,21 d,colony count,-,-,100%
O=[N+]([O-])c1ccc(CN2CC3CN(c4ccc(OC(F)(F)F)cc4)CC3C2)o1,-,MIC90,Clinical Isolate 16833,-,resazurin,INH RFP resistant,-,6.3 µg/mL
CCCCCCOc1ccc(NC(=O)OCCN2CCCCCC2)cc1,-,MIC,My 331/88,-,-,-,-,16 µM
CC(NNC(=O)c1cc[n+]([B]C#N)cc1)c1ccc(Cl)cc1Cl,0.5 µM,inhibition,-,-,BACTEC,-,-,0%
N#Cc1ccc(N2CC3CCC2CN3Cc2ccc([N+](=O)[O-])o2)cc1,-,MIC90,Clinical Isolate 16833,-,resazurin,INH RFP resistant,-,9.97 µg/mL
O=C1c2cc(Cl)ccc2OP(=O)(c2ccccc2)N1c1ccc(Cl)cc1,-,MIC,My 331/88,14 d,-,-,-,4 µM
C/C=C/C=C1\C=Cc2c(C(=O)OC)coc(=O)c21,-,MIC bound,H37Rv,-,BACTEC,-,-,>12.5 µg/mL
COc1c2ccoc2cc2oc(=O)ccc12,-,EC50,H37Ra,-,resazurin,-,-,27 µg/mL
CC[C@@H](CO)NCCN[C@@H](CC)CO,-,MIC99,234/2005,-,broth dilution,MDR,-,16 µM
C=C[C@@H](O)C#CC#C[C@@H](O)/C=C\CCCCCCC,-,MIC90,H37Ra,-,resazurin,-,-,6.25 µg/mL
CO[C@H]1/C=C/O[C@@]2(C)Oc3c(C)c(O)c4c(O)c(c5c(c4c3C2=O)NC2(CCN(CC(C)C)CC2)N=5)=NC(=O)/C(C)=C\C=C\[C@H](C)[C@H](O)[C@@H](C)[C@@H](O)[C@@H](C)[C@H](OC(C)=O)[C@@H]1C,-,MIC,Erdman,-,-,-,-,3 µg/mL
CCCCCCCCOc1cccc(NC(=O)OCC[NH+]2CCCC2)c1,-,MIC,My 331/88,-,-,-,-,16 µM
Cn1c(=O)c2nc3sc4c(n3c2n(C)c1=O)C(=O)c1ccccc1C4=O,12.5 µg/mL,inhibition,H37Rv,-,BACTEC,-,-,36%
CCc1nc2ccc(Cl)cn2c1C(=O)NCc1ccc(N2CCC(c3ccc(OC(F)(F)F)cc3)CC2)cc1,-,MIC50,N0157,-,turbidity,-,-,0.0024 µM
O=C(NN1C(=O)c2c(Cl)c(Cl)c(Cl)c(Cl)c2C1=O)c1ccc(-n2cccc2)cc1,-,MIC,H37Rv,-,resazurin,-,-,0.4 µg/mL
C[C@H]1COC2(CCN(c3nc(=O)c4cc(C(F)(F)F)cc([N+](=O)[O-])c4s3)CC2)O1,-,MIC80,H37Rv,-,resazurin / absorbance,-,-,0.004 µg/mL
CCCCCCOc1ccccc1NC(=O)OCCN1CCCCC1,-,MIC,My 331/88,-,-,-,-,16 µM
NNC(=O)c1ccncc1,-,MIC99,Praha 131,-,broth dilution,MDR,-,16 µM
CCCCCOc1cccc(NC(=O)OCCN2CCCCC2)c1,-,MIC,My 331/88,-,-,-,-,32 µM
Cc1ccc(C)n1-c1ccc(C(=O)NN2C(=O)c3c(F)c(F)c(F)c(F)c3C2=O)cc1,-,MIC,H37Rv,-,resazurin,-,-,0.2 µg/mL
COc1cc2occc2c2oc(=O)ccc12,-,MIC90,H37Ra,-,resazurin,-,-,400 µg/mL
CCN(CC)c1ccc2c(c1)Oc1ccc(N(C(C)=O)c3ccccc3)cc1C21OC(=O)c2ccccc21,-,MIC bound,H37Rv,-,resazurin,-,-,>6.25 µg/mL
C(=C\c1ccccc1)/CNc1ccc(CN2CCOCC2)cc1,-,MIC,6431,-,-,-,-,32 µg/mL
CN(C)C/C=C(/c1ccc(Br)cc1)c1ccc(-c2ccc(Br)cc2)cc1,-,MBC,H37Ra,-,-,-,-,16 µg/mL
NNC(=O)CC(N)C(=O)O,12.5 µg/mL,inhibition,H37Rv,-,BACTEC,-,-,1%
CCCCOc1cccc(NC(=O)OC(COCC)CN2CCCCC2)c1,-,MIC,My 331/88,-,-,-,-,62.5 µM
CC(C)N=c1cc2n(-c3ccc(Cl)cc3)c3ccccc3nc-2cc1Nc1ccc(Cl)cc1,-,MIC99,234/2005,-,broth dilution,MDR,-,0.125 µM
CCCCCOc1ccccc1NC(=O)OCCN1CCCCC1,-,MIC,My 331/88,-,-,-,-,16 µM
CC[C@@H](CO)NCCN[C@@H](CC)CO,-,MIC,H37Rv,-,resazurin,-,-,1.25 µg/mL
CCCCCCOc1ccc(NC(=O)OC(COCC)CN2CCCCC2)cc1,-,MIC,My 331/88,-,-,-,-,16 µM
OCCOCCN1CCN(CCCN2c3ccccc3Sc3ccc(C(F)(F)F)cc32)CC1,-,MIC,H37Rv,-,BACTEC,-,-,>12.5 µg/mL
COCCN1CCN(C(=O)c2nc3cc(C(F)(F)F)c(C)c([N+](=O)[O-])c3s2)CC1,-,MIC80,H37Rv,-,resazurin / absorbance,BTZ-resistant (C387G),-,>32 µg/mL
CN1[C@@H](CC(=O)c2ccccc2)CCC[C@H]1CC(=O)c1ccccc1.Cl,-,MIC bound,H37Rv,-,BACTEC,-,-,>12.8 µg/mL
C(=C\c1ccccc1)/CNc1cccc(Cn2ccnc2)c1,-,MIC,6425,-,-,-,-,4 µg/mL
CC1=CC2OC3C(OC(=O)CCl)C(OC(=O)CCl)C(C)(C2(COC(=O)CCl)CC1)C31CO1,6.25 µg/mL,inhibition,H37Rv,-,resazurin,-,-,11%
CN1CCN(Cc2ccc(NC/C=C/c3ccccc3)cc2)CC1,-,MIC,B814,-,-,-,-,16 µg/mL